This is a selection; strong and weak results do not stand in their true shares. Calls of active or inactive are those of the source. Cut-off read from the data, not from the text of the source: active = inhibition above about 12%; inactive = the rest.
Each molecule was assayed against Replicase polyprotein 1ab (Severe acute respiratory syndrome coronavirus) (UniProt P0C6X7) (assay: blockers of SARS 3CLpro peptide cleavage – biochemical, quenched FRET, primary screen (AID 1706)). Settings: recombinant SARS-CoV 3CLpro, at 6 µM, stronger effect = higher value.

Structure (SMILES) | inhibition
O=C(OCCN1CCN(CCOCc2ccccc2)CC1)C(O)(c1ccccc1)c1ccccc1 | inactive: 4.23%

Reference: PubChem BioAssay AID1706 (The Scripps Research Institute Molecular Screening Center, 2009)
